Target: Shiga toxin 1 B-subunit K9AzK (Shigella dysenteriae)

Work on “Shiga toxin 1 B-subunit K9AzK (natural protein)” yielded a stoichiometry N of 5.
